In paper PMC7376557:

Molecular target: T1, SpoVG (nonphosphorylated) (UniProt Q7A7B5)
T1 sequence (looked up, limits assumed): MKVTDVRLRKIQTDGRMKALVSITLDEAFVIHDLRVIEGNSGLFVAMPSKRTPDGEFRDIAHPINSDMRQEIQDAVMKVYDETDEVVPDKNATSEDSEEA
Assay: EMSA
Conditions: 50 mM Tris-HCl, 300 mM NaCl, pH 8.0, shift abolished by unlabeled psasC, EMSA: 50 mM Tris-HCl, pH 8.0, 25 C, 30 min, 4% native PAGE in 1x TBE, recombinant protein, label: biotin (reverse primer), probe letters rebuilt from the primers and the genome

TTTCTTTAACAAATTCATTTCATTTTCCTCCTGGTTGTCTGTTCTCTGCTGTGTTGTTTAGAATTATGCTAAAAATATACGCTCTCTCATATTATGTTTATAGCTATATTATTTTGTACAATATTTTAAGTTCACTCAATTTTATCATCATCATTTTATAAAATAAAGTTTTATTTTATTACAATTTAGTTTCCGTTTTGTAATTAAAATCTTAATAAAACATAACAAGAACGCTTTAGATTGTTTTGTAACAGAAAGTAATTCATACCAAAAAACACCAAGCAACCGAAACGTTACTTGGTGTCATTACAAATGTAATATTATTTTAAATTATGTCACTACTTTAAATACTTTTTATTTCCAAACCTTCATCGCCCCATGCGTGCATGCCGCCTTCGACATTTACGGCATCAATGCCATTTGCCTCTAAATATTCTACAACTTTAGCGCTTCGAACTCCACCAGCACATACAATATAATATATTTCATTTTTATTAAATGAATTTAAATTATCCGGA (double strand) [psasC promoter probe]
binding result: binds

The exact form of at least one protein or probe is not confirmed. Tags and fusion partners may be left off the protein sequences shown.
